Values from PubChem BioAssay AID624099 (ICCB-Longwood, 2012)

Test: 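Host factors E2 relies on to silence an HPV18 LCR reporter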 (primary screen)
Cell system: human C33A cervical carcinoma cells (HPV-negative) stably expressing BPV1 E2 and an HPV18 LCR luciferase reporter
Reagent: siRNA pool against human genes, 40 nM
Time to read-out: 72 h
Measurement: 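HPV18 LCR reporter light per well, converted to plate-wise z-scores that exclude control wells, and averaged over triplicate plates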
Direction: mean z-score and z-score: higher = stronger reporter signal, weaker E2 silencing
Rule for the call: 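Mean z ≥ 2 together with z ≥ 2 in two or more of the three replicates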
Shown is a random part of about 21,000 reagents. 497 of them (2.4%) count as active. 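Higher z means weaker E2 silencing; only reporter increases were scored, and knock-downs that hurt cell survival may mask genuine repressor factors.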

Gene | PubChem SID | mean z-score | z-score, replicate A | z-score, replicate B | z-score, replicate C | Call
FAM230J | SID134326890 | 0.81 | 0.97 | 0.89 | 0.58 | inactive
P3H3 | SID134322103 | 1.24 | 1.53 | 1.11 | 1.08 | inactive
PURG | SID134317857 | -0.24 | -0.23 | -0.62 | 0.12 | inactive
LOC389638 (retired record) | SID134327974 | 1.92 | 2.28 | 1.62 | 1.87 | inactive
WDFY1 | SID134312016 | 0.19 | -0.13 | -0.08 | 0.78 | inactive
KCNN3 | SID134311688 | -0.15 | -0.18 | -0.08 | -0.17 | inactive
ZNF418 | SID134325860 | 0.95 | -0.03 | 1.53 | 1.34 | inactive
ODF2 | SID134321259 | 0.58 | 0.84 | 0.66 | 0.23 | inactive
NOAZFP | SID134318378 | 0.04 | -0.03 | -0.05 | 0.18 | inactive
IL2 | SID56479206 | -0.04 | -0.15 | -0.01 | 0.04 | inactive
LPAR2 | SID134310546 | -0.77 | -1.05 | -0.62 | -0.65 | inactive
CNTN4 | SID134323006 | -0.18 | 0 | -0.11 | -0.43 | inactive
LOC388283 (retired record) | SID134328663 | -0.34 | -0.42 | -0.52 | -0.06 | inactive
C6orf58 | SID134327626 | 2.73 | 2.39 | 3.01 | 2.79 | active
DNER | SID134322552 | 0 | -0.09 | -0.25 | 0.33 | inactive
ARMC7 | SID134320231 | -0.85 | -0.99 | -0.71 | -0.86 | inactive
WDR25 | SID134318513 | -0.69 | -0.43 | -0.93 | -0.72 | inactive
PEX6 | SID134310665 | -0.28 | -0.01 | -0.38 | -0.44 | inactive
FLJ46365 (retired record) | SID134329656 | -0.58 | -0.47 | -0.6 | -0.68 | inactive
ZC3H12B | SID134326184 | 1.13 | 1.2 | 1.06 | 1.12 | inactive
CDKN2A | SID134315372 | -0.67 | -0.5 | -0.76 | -0.75 | inactive
DDX19A | SID134319886 | -0.28 | -0.23 | -0.09 | -0.51 | inactive
TNS2 | SID134314651 | -0.78 | -0.49 | -0.67 | -1.18 | inactive
EID1 | SID134309819 | 0.81 | 0.52 | 0.99 | 0.92 | inactive
NEFL | SID134323821 | 0.06 | 0.02 | 0.1 | 0.07 | inactive
MUC13 | SID134319117 | -0.6 | -0.92 | -0.63 | -0.25 | inactive
ZMIZ1 | SID134312157 | -1.76 | -1.62 | -2.08 | -1.57 | inactive
ADD3 | SID134313340 | 0.16 | 0.01 | 0.14 | 0.32 | inactive
HDHD3 | SID134322074 | 0.78 | 1.03 | 0.51 | 0.79 | inactive
IGSF5 | SID134326051 | -0.1 | 0.78 | -2.01 | 0.92 | inactive
HOXB5 | SID134321465 | 1.96 | 2.13 | 1.87 | 1.87 | inactive
FAHD2A | SID134329424 | -0.73 | -0.94 | -0.84 | -0.42 | inactive
PTS | SID134314948 | -0.21 | -0.25 | -0.1 | -0.28 | inactive
RBM15B | SID134322660 | 0.02 | 0.4 | 0.05 | -0.38 | inactive
TM2D2 | SID134317277 | 0.96 | 1.17 | 0.72 | 1 | inactive
CARD18 | SID134314607 | -0.98 | -1.22 | -1.4 | -0.33 | inactive
COLCA1 | SID134329578 | -0.3 | -0.32 | -0.25 | -0.32 | inactive
RFX2 | SID134315487 | 0.28 | 0.16 | 0.1 | 0.59 | inactive
LOC388454 (retired record) | SID134328839 | 0.6 | 0.62 | 0.52 | 0.66 | inactive
NT5E | SID134313103 | 0.28 | 0.57 | 0.12 | 0.14 | inactive
LRRC28 | SID134323165 | 1.06 | 1.2 | 1.04 | 0.94 | inactive
EPM2AIP1 | SID134322746 | 0.37 | 0.67 | 0.22 | 0.21 | inactive
LOC128939 (retired record) | SID134326054 | 0.03 | 0.02 | 0.07 | 0 | inactive
UBR4 | SID134318209 | 0.28 | -0.13 | 0.3 | 0.66 | inactive
SHH | SID134311458 | -0.69 | -0.89 | 0.09 | -1.28 | inactive
CPLX4 | SID134322597 | -0.1 | -0.31 | 0.15 | -0.15 | inactive
TUBG2 | SID134314055 | -1.62 | -0.96 | -1.94 | -1.95 | inactive
FAM186B | SID134318887 | 0.27 | 0.8 | 0 | 0.01 | inactive
C3P1 | SID134328975 | 0.56 | 0.71 | 0.42 | 0.54 | inactive
CYB5D1 | SID134320225 | -1.27 | -1.32 | -1.34 | -1.16 | inactive
LELP1 | SID134325150 | 0.39 | 0.48 | 0.15 | 0.56 | inactive
PNPLA1 | SID134313879 | -1.58 | -1.64 | -1.78 | -1.33 | inactive
GRASLND | SID134327243 | 0.47 | 0.35 | 0.12 | 0.93 | inactive
TBL3 | SID134321367 | 0.05 | 0.06 | 0.12 | -0.02 | inactive
DBH | SID134314699 | 0.61 | 0.71 | 0.68 | 0.44 | inactive
LOC387791 (retired record) | SID134328282 | -1.36 | -1.33 | -1.51 | -1.23 | inactive
PLEKHA1 | SID134321931 | 0.91 | 1.09 | 0.92 | 0.72 | inactive
MBTPS2 | SID134311366 | -0.77 | -1 | -0.49 | -0.81 | inactive
CSRP1 | SID134316155 | -1.17 | -1.22 | -1.17 | -1.12 | inactive
WDR5 | SID134317610 | -1.02 | -0.74 | -0.97 | -1.34 | inactive
NKX6-2 | SID134322099 | 0.6 | 0.52 | 0.26 | 1.01 | inactive
PPP1R21 | SID134321029 | -1.89 | -1.93 | -1.93 | -1.81 | inactive
MEAF6 | SID134320324 | 0.07 | 0.04 | -0.05 | 0.22 | inactive
LRRN4CL | SID134329274 | 1.02 | 0.75 | 0.93 | 1.38 | inactive
CYP2D6 | SID134314282 | -0.63 | -0.41 | -0.8 | -0.67 | inactive
ZNF573 | SID134320605 | -0.99 | -0.7 | -1.19 | -1.07 | inactive
FAM117B | SID134322389 | -0.29 | -0.28 | -0.4 | -0.2 | inactive
TGIF2LY | SID134321222 | 0.79 | 0.7 | 0.93 | 0.73 | inactive
PPP1R2C | SID134317205 | 0.48 | 0.63 | 0.54 | 0.28 | inactive
HLA-DPA1 | SID134317769 | 1.01 | 1.1 | 0.95 | 0.99 | inactive
PI4KB | SID56479138 | -1.46 | -1.32 | -1.61 | -1.46 | inactive
ADCY5 | SID134311929 | 1.43 | 1.32 | 1.63 | 1.34 | inactive
LINC00851 | SID134329860 | 0.05 | 0.25 | -0.23 | 0.13 | inactive
